Assay results: publication PMC3445454, “Broad and Cross-Clade CD4^+ T-Cell Responses Elicited by a DNA Vaccine Encoding Highly Conserved and Promiscuous HIV-1 M-Group Consensus Peptides” (PLoS ONE, 2012)

Experiments:
Test in all cases: biochemical
[1] = target: HLA-DQ DQA1*01:02/DQB1*06:02 (Homo sapiens, UniProt P01909+P01920, A157G/A45G/C70R/E118A/E183D/E77G/F83G/G63E/H151Q/H199R/H252R/H253Q/I129T/I235V/I88M/INS77G/K197Q/L117V/L119F/L178F/L71W/L74F/L85Q/L91A/L98M/N214S/P87R/Q116E/Q76K/R102G/R240Q/R75S/R78G/S102Y/S185I/S41F/S97I/T121G/T122I/T172A/T86R/V229M/V68A/V73E/Y34C/Y41F/Y58L); assay type: binding
[2] = target: HLA-DQ DQA1*01:01/DQB1*05:01 (Homo sapiens, UniProt P01909+P01920, A157S/A45G/A70V/C70R/D89V/E106S/E118A/E183D/E77G/F83G/G63E/H151Q/H199R/H252R/H253Q/I129T/I235V/I88M/INS77G/K197Q/L107V/L117V/L119Y/L178F/L71W/L74F/L85Q/L91A/L98M/M46L/N214S/P87R/Q116E/Q256R/Q57E/Q76K/R102G/R240Q/R75S/R78G/S102Y/S185I/S41F/S97I/T103A/T109R/T121G/T122I/T172A/T86R/V148I/V68A/V73E/Y34C/Y58G/Y62H)
[3] = target: HLA-DQ DQA1*01:04/DQB1*05:03 (Homo sapiens, UniProt P01909+P01920, A157S/A221T/A45G/A70V/C70R/D25G/E106S/E118A/E183D/E77G/F83G/G63E/H151Q/H199R/H252R/H253Q/I129T/I235V/I88M/INS77G/K197Q/L107V/L117V/L119Y/L178F/L71W/L74F/L85Q/L91A/L98M/M46L/N214S/P87R/Q116E/Q256R/Q57E/Q76K/R102G/R240Q/R75S/R78G/S102Y/S185I/S41F/S97I/T103A/T109R/T121G/T122I/T172A/T86R/V148I/V68A/V73E/Y34C/Y58G/Y62H)
[4] = target: HLA-DQ DQA1*03:01/DQB1*03:02 (Homo sapiens, UniProt P01909+P01920, A209T/A45G/C70Q/D89A/DUP78-78/E183D/E77G/F237L/G63E/H199R/I129T/K197E/L178F/L74F/L98V/Q57E/Q76R/S185I/S97I/T217I/T49S/V73L/Y58L); assay type: binding; conditions: read-out: Binding capacity/IC50 (nM) DQA1*03:01 DQB1*03:02
[5] = target: HLA-DQ DQA1*02:01/DQB1*02:02 (Homo sapiens, UniProt P01909+P01920, A45G/A70V/C70K/D167G/D89A/E106A/E183D/E77G/E98D/F237L/F77L/G63E/H199R/I129T/K197E/L107V/L178F/L74F/N214S/P84L/P87L/Q57E/Q76R/R75H/S185I/S97I/T103K/T109R/T172A/T60S/V73L/V78E/V99I/Y48F/Y58L/Y62S/Y69I/Y79F); assay type: binding
[6] = target: HLA-DQ DQA1*03:01/DQB1*03:01 (Homo sapiens, UniProt P01909+P01920, A209T/C70Q/DUP78-78/E183D/F237L/G63E/I129T/K197E/L178F/L74F/L98V/Q57E/Q76R/S185I/S97I/T49S/V73L); assay type: binding
[7] = target: HLA-DQ DQA1*05:01/DQB1*02:01 (Homo sapiens, UniProt P01909+P01920, A45G/A70V/D89A/E106A/E77G/E98D/H199R/L107V/N214S/P84L/P87L/T103K/T109R/T172A/T60S/V78E/V99I/Y58L/Y62S/Y69I/Y79F)
[8] = target: HLA-DQ DQA1*01:03/DQB1*06:03 (Homo sapiens, UniProt P01909+P01920, A157G/A45G/C70R/E118A/E183D/E77G/F83G/G63E/H199R/H252R/H253Q/I129T/I235V/I88M/INS77G/K197Q/L117V/L119F/L178F/L71W/L74F/L85Q/L91A/L98M/N214S/P87R/Q116E/Q76K/R102G/R240Q/R64K/R75S/R78G/S102Y/S152A/S185I/S41F/S97I/T121G/T122I/T172A/T86R/V68A/V73E/Y34C/Y48F/Y58L/Y62H)
[9] = target: HLA-DQ DQA1*04:01/DQB1*04:02 (Homo sapiens, UniProt P01909+P01920, A45G/E106S/E183D/E77G/E98D/H199R/I129T/K197E/L107V/L178F/L91T/P87R/P88L/R102E/S185I/S97I/T103D/T217I/V99I/Y41F/Y58G)
[10] = target: HLA-DQ DQA1*01:02/DQB1*05:02 (Homo sapiens, UniProt P01909+P01920, A157S/A45G/A70V/C70R/D89S/E106S/E118A/E183D/E77G/F83G/G63E/H151Q/H199R/H252R/H253Q/I129T/I235V/I88M/INS77G/K197Q/L107V/L117V/L119Y/L178F/L71W/L74F/L85Q/L91A/L98M/M46L/N214S/P87R/Q116E/Q158H/Q256R/Q76K/R102G/R240Q/R75S/R78G/S102Y/S185I/S41F/S97I/T103A/T109R/T121G/T122I/T172A/T86R/V148I/V229M/V68A/V73E/Y34C/Y58G/Y62H)
[11] = read-out: Binding capacity/IC50 (nM) DQA1*02:01 DQB1*02:02
[12] = read-out: Binding capacity/IC50 (nM) DQA1*03:01 DQB1*03:01
[13] = read-out: Binding capacity/IC50 (nM) DQA1*01:02 DQB1*06:02

CC[C@H](C)[C@H](NC(=O)[C@H](CCCCN)NC(=O)[C@@H](NC(=O)[C@@H](NC(=O)[C@H](CCCNC(=N)N)NC(=O)[C@@H](NC(=O)[C@H](C)NC(=O)[C@H](CCCCN)NC(=O)[C@H](CC(C)C)NC(=O)[C@H](CC(C)C)NC(=O)[C@H](CCC(=O)O)NC(=O)[C@H](CCC(=O)O)NC(=O)[C@@H](N)CC(=O)O)C(C)C)[C@@H](C)CC)[C@@H](C)CC)C(=O)N[C@@H](CC(C)C)C(=O)N[C@@H](Cc1ccc(O)cc1)C(=O)N[C@@H](CCC(N)=O)C(=O)N[C@@H](CO)C(=O)N[C@@H](CC(N)=O)C(=O)N1CCC[C@H]1C(N)=O [rev(9-27)]
IC50 [1]: 52 nM | IC50 [2]: 602 nM | IC50 [3]: 1230 nM | IC50 [4]: 24700 nM | IC50 [5, 11]: 7000 nM | IC50 [6, 12]: 181 nM | IC50 [7]: 1260 nM | IC50 [8]: 58 nM | IC50 [9]: 3180 nM | IC50 [10]: 636 nM

CC[C@H](C)[C@H](NC(=O)[C@@H](NC(=O)[C@H](CCCCN)NC(=O)[C@@H](NC(=O)[C@@H]1CCCN1C(=O)[C@H](Cc1c[nH]c2ccccc12)NC(=O)[C@H](CCCNC(=N)N)NC(=O)CNC(=O)[C@H](C)NC(=O)[C@H](CC(C)C)NC(=O)[C@H](CCCCN)NC(=O)[C@H](CC(C)C)NC(=O)[C@@H](NC(=O)[C@H](Cc1ccccc1)NC(=O)[C@H](Cc1ccc(O)cc1)NC(=O)[C@H](C)NC(=O)[C@@H](NC(=O)[C@@H](N)CCC(=O)O)[C@@H](C)O)[C@@H](C)CC)C(C)C)C(C)C)C(N)=O [integrase(96-113)]
IC50 [1, 13]: 311 nM | IC50 [2]: 98 nM | IC50 [3]: 268 nM | IC50 [4]: 7100 nM | IC50 [5, 11]: > 30000 nM | IC50 [6]: 5410 nM | IC50 [7]: > 30000 nM | IC50 [8]: 1240 nM | IC50 [9]: > 30000 nM | IC50 [10]: 564 nM

CC[C@H](C)[C@H](NC(=O)[C@H](CC(=O)O)NC(=O)[C@H](CC(C)C)NC(=O)[C@@H](NC(=O)[C@H](CO)NC(=O)[C@@H](NC(=O)[C@@H]1CCCN1C(=O)[C@H](CO)NC(=O)[C@H](Cc1ccc(O)cc1)NC(=O)[C@H](CCSC)NC(=O)[C@H](CCCNC(=N)N)NC(=O)[C@@H](NC(=O)[C@@H](NC(=O)[C@H](CCCCN)NC(=O)[C@H](CC(N)=O)NC(=O)[C@@H](N)CC(C)C)[C@@H](C)CC)C(C)C)C(C)C)[C@@H](C)CC)C(N)=O [p24(138-153)]
IC50 [1]: 301 nM | IC50 [2]: 103 nM | IC50 [3]: 641 nM | IC50 [4]: > 30000 nM | IC50 [5, 11]: 3680 nM | IC50 [6]: 924 nM | IC50 [7]: 493 nM | IC50 [8]: 141 nM | IC50 [9]: 11200 nM | IC50 [10]: 3320 nM

CC[C@H](C)[C@H](NC(=O)[C@H](C)NC(=O)[C@@H](N)CCC(=O)O)C(=O)N[C@H](C(=O)N[C@@H](CCCNC(=N)N)C(=O)N[C@H](C(=O)N[C@@H](CC(C)C)C(=O)N[C@@H](CCC(N)=O)C(=O)N[C@@H](CCC(N)=O)C(=O)N[C@@H](CC(C)C)C(=O)N[C@@H](CC(C)C)C(=O)N[C@@H](Cc1ccccc1)C(=O)N[C@H](C(=O)N[C@@H](Cc1c[nH]cn1)C(=O)N[C@@H](Cc1ccccc1)C(=O)N[C@@H](CCCNC(=N)N)C(=O)N[C@H](C(=O)NCC(=O)N[C@@H](CS)C(=O)N[C@@H](CCC(N)=O)C(=O)N[C@@H](Cc1c[nH]cn1)C(=O)N[C@@H](CO)C(=O)N[C@@H](CCCNC(=N)N)C(N)=O)[C@@H](C)CC)[C@@H](C)CC)[C@@H](C)CC)[C@@H](C)CC [vpr(58-80)]
IC50 [1, 13]: 4170 nM | IC50 [2]: 177 nM | IC50 [3]: 415 nM | IC50 [4]: > 30000 nM | IC50 [5]: 14900 nM | IC50 [6, 12]: 812 nM | IC50 [7]: > 30000 nM | IC50 [8]: > 30000 nM | IC50 [9]: 2980 nM | IC50 [10]: 388 nM

Read-outs that look alike come from different tables or passages of the source.
